Results of unrelated studies side by side (data: NIAID ChemDB).

Shared fields: tests in culture; organism: Cryptococcus neoformans

An empty or dashed field is not shown. A number after MIC or MFC names an inhibition level or a share of isolates. Rows are shuffled and stem from different studies.

structure,strain or isolate,endpoint,method,value
Cc1nc(NCCCCNc2ccnc3cc(Cl)ccc23)nc(-c2ccccc2[N+](=O)[O-])c1C(=O)OC(C)C,ATCC 28957,MIC99,-,1.4 µg/mL
COc1ccc2c(c1)C(=O)/C(=C/c1ccc3ccccc3c1)CO2,Farwania,MIC,-,12.5 µg/mL
CCOC(=O)c1c(C)nc(NCCCNc2ccnc3cc(Cl)ccc23)nc1-c1ccccc1,F-10,MIC99,-,4 µg/mL
COc1ccc(/C=C2\COc3ccc(OC)cc3C2=O)cc1,25,MIC,-,6 µg/mL
CCC(C)n1ncn(-c2ccc(N3CCN(c4ccc(OC[C@H]5CO[C@](Cn6cncn6)(c6ccc(Cl)cc6Cl)O5)cc4)CC3)cc2)c1=O,Clinical isolate (IM 000319),MIC,broth dilution,<0.015 µg/mL
COc1ccc2c(c1)C(=O)/C(=C/c1ccc3c(c1)CC3)CO2,Farwania,MIC,-,12.5 µg/mL
Oc1cccc(C=Nc2ccccc2O)c1,ATCC 28957,MIC,broth dilution,2.8 µg/mL
O=C1/C(=C/c2ccc(O)cc2)CCc2ccccc21,93/V,MIC,-,100 µg/mL
Oc1ccccc1N=Cc1ccc2c(c1)OCO2,GM,MIC,broth dilution,5.8 µg/mL
C[C@@H]([C@@](O)(Cn1cncn1)c1ccc(F)cc1F)S(C)(=O)=O,B4500 (AZOLE-S),MIC,-,>1000 µM
Cn1nc(Cc2ccc(Cl)cc2)c2ccccc2c1=O,Clinical isolate (IM 972724),MFC,broth dilution,15.6 µg/mL
O=C1/C(=C/c2ccccc2)CSc2ccc(Cl)cc21,25,MIC,-,6 µg/mL
Oc1ccccc1C=Nc1ccccc1O,ATCC 24067,MIC99,-,5.7 µg/mL
C[C@@H](n1cnc2cc(Cl)ccc2c1=O)[C@](O)(Cn1cncn1)c1ccc(F)cc1F,Isolate 119.95,MIC,-,0.0024 µg/mL
CN[C@H]1CC[C@@H](c2ccc(Cl)c(Cl)c2)c2ccccc21,A2-102-5,MIC90,broth dilution,5 µg/mL
C[C@@H](c1nc(-c2ccc(C#N)cc2)cs1)[C@](O)(Cn1cnnc1)c1ccc(F)cc1F,A26037,MIC,-,0.008 µg/mL
Oc1ccccc1N=Cc1cccc(O)c1O,5396,MIC99,-,4 µg/mL
O=C1/C(=C/c2ccc(O)c(O)c2)CCc2ccccc21,Farwania,MIC,-,100 µg/mL

2 of the rows above, restated:

structure	strain or isolate	endpoint	method	value
Oc1ccccc1N=Cc1ccc2c(c1)OCO2	GM	MIC	broth dilution	5.8 µg/mL
Oc1ccccc1N=Cc1cccc(O)c1O	5396	MIC99	-	4 µg/mL